A mixed list of measured activities; the numbers were collected in NIAID ChemDB.

Shared fields: tests in culture; organism: Candida albicans; read-out: MIC100

MIC50, MIC90 and the like: level of inhibition, or share of isolates inhibited. Rows are shuffled and stem from different studies. An empty or dashed field is not shown.

SMILES,strain or isolate,method,setting,value
Cn1c(=O)ccc2c3sc(N4CCC(Cc5ccccc5)CC4)nc3ccc21,MTCC 183,,,200 µg/mL
c1ccc(-c2n[nH]c(COc3ncnc4ccccc34)n2)cc1,MTCC 227,,,12.5 µg/mL
Cc1ccc(-c2c3c(N)c4c(nc3nc3c2c(C)nn3-c2ccccc2)CCCC4)cc1,CCC 125,broth dilution / absorbance,,31.2 µg/mL
CC(=O)N1CCN(c2nc3ccc4c(ccc(=O)n4C)c3s2)CC1,MTCC 183,,,62.5 µg/mL
CCCCCCCCCCCCn1cc[n+](COCCCOC[n+]2ccn(CCCCCCCCCCCC)c2)c1,ATCC 90028,agar diffusion,,8 µM
C[C@H]1[C@H](O)[C@@H](C)/C=C/C=C/C=C/C=C/C=C/C=C/C=C/[C@H](O[C@@H]2O[C@H](C)[C@@H](O)[C@H](N)[C@@H]2O)C[C@@H]2O[C@](O)(C[C@@H](O)C[C@@H](O)CC[C@H](O)[C@@H](O)C[C@@H](O)CC(=O)O[C@H]1C)C[C@H](O)[C@H]2C(=O)O,Clinical isolate,broth dilution,clinical isolate,<0.3 µg/mL
CCCCCCCCCCCn1cc[n+](COCCCCOC[n+]2ccn(CCCCCCCCCCC)c2)c1,ATCC 90028,agar diffusion,,8 µM
CC1CC(C)CN(c2nc3ccc4oc(=O)ccc4c3s2)C1,MTCC 183,,,50 µg/mL
CCCCCCCCCCn1cc[n+](COCCCCCOC[n+]2ccn(CCCCCCCCCC)c2)c1,ATCC 90028,agar diffusion,,4 µM
Cc1ccc(-c2n[nH]c(COc3nc(C(F)(F)F)nc4ccccc34)n2)cc1,MTCC 227,,,12.5 µg/mL
C[C@H]1[C@H](O)[C@@H](C)/C=C/C=C/C=C/C=C/C=C/C=C/C=C/[C@H](O[C@@H]2O[C@H](C)[C@@H](O)[C@H](N)[C@@H]2O)C[C@@H]2O[C@](O)(C[C@@H](O)C[C@@H](O)CC[C@H](O)[C@@H](O)C[C@@H](O)CC(=O)O[C@H]1C)C[C@H](O)[C@H]2C(=O)O,n. 1s,broth dilution,,2 µM
FC(F)(F)c1nc(OCc2nc(-c3ccc(Cl)cc3)n[nH]2)c2ccccc2n1,MTCC 227,,,6.25 µg/mL
Cn1c(=O)ccc2c3sc(N4CCN(c5ccc(F)cc5)CC4)nc3ccc21,MTCC 183,,,50 µg/mL
CCCCCCCCCn1cc[n+](COCCCCCCOC[n+]2ccn(CCCCCCCCC)c2)c1,ATCC 90028,agar diffusion,,8 µM
CC(C)N1CCN(c2nc3ccc4oc(=O)ccc4c3s2)CC1,MTCC 183,,,62.5 µg/mL
Cc1ccc(-c2c3c(N)c4c(nc3nc3c2c(C)nn3-c2ccccc2)CCC4)cc1,CCC 127,broth dilution / absorbance,,62.5 µg/mL
CCn1cc[n+](COCCCCCCOC[n+]2ccn(CC)c2)c1,ATCC 90028,agar diffusion,,1634 µM
c1coc(-c2n[nH]c(COc3ncnc4ccccc34)n2)c1,MTCC 227,,,6.25 µg/mL
CC(C)C[C@@H]1NC(=O)[C@H](C(C)C)NC1=O,MTCC 277,broth dilution,,32 µg/mL
Cc1ccc(-c2c3c(N)c4c(nc3nc3c2c(C)nn3-c2ccccc2)CCCCC4)cc1,CCC 125,broth dilution / absorbance,,125 µg/mL
C[C@H]1[C@H](O)[C@@H](C)/C=C/C=C/C=C/C=C/C=C/C=C/C=C/[C@H](O[C@@H]2O[C@H](C)[C@@H](O)[C@H](N)[C@@H]2O)C[C@@H]2O[C@](O)(C[C@@H](O)C[C@@H](O)CC[C@H](O)[C@@H](O)C[C@@H](O)CC(=O)O[C@H]1C)C[C@H](O)[C@H]2C(=O)O,MTCC 16,broth dilution,,16 µg/mL
Fc1ccc(-c2n[nH]c(COc3nc(C(F)(F)F)nc4ccccc34)n2)cc1,MTCC 227,,,6.25 µg/mL
CCCCCCCCCCCCCCCCn1cc[n+](COCCCCCOC[n+]2ccn(CCCCCCCCCCCCCCCC)c2)c1,ATCC 90028,agar diffusion,,102 µM
FC(F)(F)c1nc(OCc2nc(-c3ccco3)n[nH]2)c2ccccc2n1,MTCC 227,,,6.25 µg/mL
Cc1nn(-c2ccccc2)c2nc3nc4c(c(N)c3c(-c3ccc(Cl)cc3)c12)CCCCC4,ATCC 10231,broth dilution / absorbance,,125 µg/mL
COc1ccc(-c2n[nH]c(COc3nc(C)nc4ccccc34)n2)cc1,MTCC 227,,,6.25 µg/mL
Cc1nn(-c2ccccc2)c2nc3nc4c(c(N)c3c(-c3ccc(Cl)cc3)c12)CCC4,ATCC 10231,broth dilution / absorbance,,>250 µg/mL
CCCCCCn1cc[n+](COCCCCCOC[n+]2ccn(CCCCCC)c2)c1,ATCC 90028,agar diffusion,,158 µM
Cc1ccc(-c2n[nH]c(COc3nc(C)nc4ccccc34)n2)cc1,MTCC 227,,,6.25 µg/mL

The last 4 rows once more:

| SMILES | strain or isolate | method | setting | value |
|---|---|---|---|---|
| COc1ccc(-c2n[nH]c(COc3nc(C)nc4ccccc34)n2)cc1 | MTCC 227 |  |  | 6.25 µg/mL |
| Cc1nn(-c2ccccc2)c2nc3nc4c(c(N)c3c(-c3ccc(Cl)cc3)c12)CCC4 | ATCC 10231 | broth dilution / absorbance |  | >250 µg/mL |
| CCCCCCn1cc[n+](COCCCCCOC[n+]2ccn(CCCCCC)c2)c1 | ATCC 90028 | agar diffusion |  | 158 µM |
| Cc1ccc(-c2n[nH]c(COc3nc(C)nc4ccccc34)n2)cc1 | MTCC 227 |  |  | 6.25 µg/mL |